A mixed list of measured activities; the numbers were collected in NIAID ChemDB.

Shared fields: whole-cell or culture tests; organism: HIV-1; method: syncytia; endpoint: EC50

Lines come from different laboratories, so protocols vary. ECn is the concentration giving n% inhibition of infection, replication or growth.

CC(C)=CCN1Cc2cccc3[nH]c(=S)n(c23)C[C@@H]1C ; strain: IIIB ; cells: CEM ; value: 0.09 µM
Cc1cn([C@@H]2O[C@H](CO[Si](C)(C)C(C)(C)C)C3(OS(=O)(=O)C=C3N)[C@H]2O[Si](C)(C)C(C)(C)C)c(=O)n(C)c1=O ; cells: CEM ; mutations: RT-E138K ; value: >10 µM
Cc1cn([C@@H]2O[C@H](CO[Si](C)(C)C(C)(C)C)C3(OS(=O)(=O)C=C3N)[C@H]2O[Si](C)(C)C(C)(C)C)c(=O)n(C)c1=O ; strain: IIIB ; cells: CEM ; mutations: RT-M184V ; value: 0.019 µg/mL
CC(C)(C)NC(=O)[C@@H]1C[C@@H]2CCCC[C@@H]2CN1CC(O)CNC(=O)[C@@H]1N[C@@H]([C@H](NC(=O)Cc2ccccc2)C(=O)NCCNC(=O)OC(C)(C)C)SC1(C)C ; strain: RF ; cells: C8166 ; value: 0.1 µM
Cc1cn([C@H]2C[C@H](N=[N+]=[N-])[C@@H](CO)O2)c(=O)[nH]c1=O ; strain: J179-1 Clinical isolate ZDV-resistant ; cells: HT4 + HeLa ; mutations: RT-M41L D67N L210W T215Y ; value: 2.6 µM
O=C(O)c1cc(O)c(O)c(O)c1 ; strain: IIIB ; cells: MOLT-3 ; value: <10 µg/mL
CCN1C(=O)N(Cc2cccc(Cl)c2)S(=O)(=O)c2cscc21 ; strain: IIIB ; cells: CEM ; value: 1.1 µM
CCCCCCCCCCCCCCCCCCCCCCOCC(C)(COCCCCCCCCCCCCCCCCCCCCCC)CO[C@]1(C(=O)O)C[C@H](OS(=O)(=O)O)[C@@H](NC(C)=O)[C@H]([C@H](OS(=O)(=O)O)[C@@H](COS(=O)(=O)O)OS(=O)(=O)O)O1 ; strain: IIIB ; cells: H9 ; value: 1 µM
O=c1[nH]cnc2c1ncn2[C@H]1CC[C@@H](CO)O1 ; strain: IIIB ; cells: CEM ; value: 4.6 µM
CC(C)(C)NC(=O)[C@@H]1C[C@@H]2CCCC[C@@H]2CN1C[C@H](O)CNC(=O)[C@@H]1N[C@@H]([C@H](NC(=O)Cc2ccccc2)C(N)=O)SC1(C)C ; strain: RF ; cells: C8166 ; value: 0.12 µM
Nc1ncnc2c1ncn2CCOCP(=O)(O)O ; strain: IIIB ; cells: CEM ; mutations: RT-E138K ; value: 15 µM
Nc1ccn([C@H]2CC[C@@H](CO)O2)c(=O)n1 ; strain: 1241 (AZT-resistant RT-K70R) ; cells: MT-4 ; mutations: RT-K70R ; value: 0.038 µM
COc1ccc2c(c1)N(C(=O)OC(C)C)[C@@H](CSC)C(=S)N2 ; strain: IIIB ; cells: CEM ; value: 0.001 µg/mL
Nc1nc2c(ncn2[C@H]2CC[C@@H](CO)O2)c(=O)[nH]1 ; strain: IIIB ; cells: CEM ; value: 1.1 µM
N#CCN1C(=O)N(Cc2cccc(F)c2)S(=O)(=O)c2cscc21 ; strain: IIIB ; cells: CEM ; value: 0.6 µM
CCCc1cc(=O)oc2c3c(c4c(c12)OC(C)(C)C=C4)O[C@H](C)[C@@H](C)[C@@H]3O ; strain: RF ; cells: CEM + CEM-SS ; value: 0.08 µM
O=C(O)P(=O)(O)O ; strain: LAI viral clone (RT-W88S) ; cells: HT4LACZ-1 + HT4 LacZ-1 ; mutations: RT-W88S ; value: 105 µM
C=C(C)OC(=O)N1c2cc(Cl)ccc2NC(=S)C1(C)C ; strain: IIIB ; cells: CEM ; value: 0.013 µM
Nc1ncnc2c1ncn2CCOCP(=O)(O)O ; strain: IIIB TIBO R82913 STR-1 (RT L100I Y181C) ; cells: CEM ; mutations: RT-L100I Y181C ; value: 25 µM
Cc1ccnc2c1NC(=O)c1cccnc1N2C1CC1 ; strain: IIIB ; cells: CEM ; mutations: RT-E138K ; value: 0.07 µM
Cc1cn([C@H]2C[C@H](N=[N+]=[N-])[C@@H](CO)O2)c(=O)[nH]c1=O ; strain: IIIB ; cells: CEM ; value: 0.006 µg/mL
O=c1[nH]cnc2c1ncn2[C@H]1CC[C@@H](CO)O1 ; strain: IIIB TSAO-T(RT-E138K) ; cells: CEM ; mutations: RT-E138K ; value: 10 µM
Cc1occc1C(=S)Nc1ccc(Cl)c(/C=N/OC(C)(C)C)c1 ; strain: IIIB ; cells: CEM ; value: 0.05 µg/mL
CCCc1cc(=O)oc2c3c(c4c(c12)OC(C)(C)CC4)O[C@H](C)[C@@H](C)[C@@H]3O ; strain: RF ; cells: CEM + CEM-SS ; value: 0.17 µM
CN(C)c1ccc(CNC(=O)[C@@H](NC(=O)Cc2ccccc2)[C@@H]2N[C@@H](C(=O)NC[C@@H](O)CN3C[C@H]4CCCC[C@H]4C[C@H]3C(=O)NC(C)(C)C)C(C)(C)S2)cc1 ; strain: RF ; cells: C8166 ; value: 0.27 µM
CN1C(=O)N(Cc2ccccc2)S(=O)(=O)c2cscc21 ; cells: CEM ; mutations: RT-K103N ; value: >324 µM
Cc1cn([C@H]2C[C@H](N=[N+]=[N-])[C@@H](CO)O2)c(=O)[nH]c1=O ; strain: IIIB ; cells: CEM ; value: 0.003 µg/mL
Nc1nc2c(ncn2[C@H]2CC[C@@H](CO)O2)c(=O)[nH]1 ; strain: IIIB ; cells: CEM ; value: 1 µM
CC(C)(C)[Si](C)(C)OC[C@H]1O[C@@H](n2ccc(=O)[nH]c2=O)[C@H](O[Si](C)(C)C(C)(C)C)C12OS(=O)(=O)C=C2N ; strain: IIIB ; cells: CEM ; mutations: RT-E138K ; value: >8 µM
Cc1occc1C(=S)Nc1ccc(Cl)c(C(=O)OC2CCCC2)c1 ; strain: IIIB ; cells: CEM ; mutations: RT-K103N ; value: 0.7 µg/mL
CC(C)Nc1cccnc1N1CCN(C(=O)c2cc3cc(NS(C)(=O)=O)ccc3[nH]2)CC1 ; strain: IIIB ; cells: CEM ; value: 0.006 µg/mL
C[C@@H](Cn1cnc2c(N)nc(N)nc21)OCP(=O)(O)O ; strain: HE ; cells: CEM ; value: 25 µM
Cc1cn([C@H]2C[C@H](N=[N+]=[N-])[C@@H](CO)O2)c(=O)[nH]c1=O ; strain: IIIB ; cells: C8166 ; value: 0.08 µM
Nc1nc(=O)n([C@@H]2CS[C@H](CO)O2)cc1F ; strain: IIIB ; cells: CEM ; value: 0.003 µg/mL
Cc1cn([C@H]2C[C@H](N=[N+]=[N-])[C@@H](CO)O2)c(=O)[nH]c1=O ; strain: IIIB TIBO R82913 STR-1 (RT L100I Y181C) ; cells: CEM ; mutations: RT-L100I Y181C ; value: 0.009 µM
C[C@H](Cn1cnc2c(N)ncnc21)OCP(=O)(O)O ; strain: IIIB ; cells: C8166 ; value: 14 µM
CCN1C(=O)N(Cc2ccccc2)S(=O)(=O)c2cscc21 ; strain: HE ; cells: MT-4 ; value: 20.5 µM
Cc1occc1C(=S)Nc1ccc(Cl)c(/C=N/OC(C)(C)C)c1 ; strain: IIIB ; cells: CEM ; mutations: RT-M184V ; value: 0.007 µg/mL

A second listing of 2 rows from above:

{"structure": "CCCCCCCCCCCCCCCCCCCCCCOCC(C)(COCCCCCCCCCCCCCCCCCCCCCC)CO[C@]1(C(=O)O)C[C@H](OS(=O)(=O)O)[C@@H](NC(C)=O)[C@H]([C@H](OS(=O)(=O)O)[C@@H](COS(=O)(=O)O)OS(=O)(=O)O)O1", "strain": "IIIB", "cells": "H9", "value": "1 µM"}
{"structure": "Cc1cn([C@H]2C[C@H](N=[N+]=[N-])[C@@H](CO)O2)c(=O)[nH]c1=O", "strain": "IIIB", "cells": "CEM", "value": "0.006 µg/mL"}